Article PMC5595889, “Synergy of two low-affinity NLSs determines the high avidity of influenza A virus nucleoprotein NP for human importin α isoforms” (2017)

How the values were obtained:
Test in all cases: pull-down
[1] = biological target: GST-tagged importin α3 lacking the IBB; settings: GST-importin α isoforms (1 μM), influenza NP (0.75 µM), 4 °C; parent: est. 0.73; read off a plot
[2] = biological target: GST-tagged importin α5 lacking the IBB; settings: GST-importin α isoforms (1 μM), influenza NP (0.75 µM), 4 °C; parent: est. 0.86; read off a plot
[3] = biological target: GST-tagged importin α1 lacking the IBB; settings: GST-importin α isoforms (1 μM), influenza NP (0.75 µM), 4 °C; parent: est. 0.50; read off a plot
[4] = biological target: GST-tagged importin α7 lacking the IBB; settings: GST-importin α isoforms (1 μM), influenza NP (0.75 µM), 4 °C; parent: est. 0.95; read off a plot

Substance | response [1] | response [2] | response [3] | response [4]
influenza A virus (H1N1 strain A/WSN/33) monomeric nucleoprotein (from UniProt P15682) R213A; R214A | 0.59 pixel ratio | 0.69 pixel ratio |  | 
influenza A virus (H1N1 strain A/WSN/33) monomeric nucleoprotein (from UniProt P15682) K7A; R8A; R213A; R214A | 0.01 pixel ratio | 0.005 pixel ratio | 0.02 pixel ratio | 0.012 pixel ratio
influenza A virus (H1N1 strain A/WSN/33) monomeric nucleoprotein (from UniProt P15682) K7A; R8A | 0.01 pixel ratio | 0.01 pixel ratio | 0.033 pixel ratio | 0.012 pixel ratio
